Values from PubChem BioAssay AID1259414 (Drosophila RNAi Screening Center, 2018)

- Purpose: 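Host factors increasing or decreasing Wolbachia levels in cultured fly cells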 (primary screen)
- System: Drosophila JW18 cells infected with Wolbachia
- Knock-down reagent: long dsRNA against Drosophila genes, 0.25 µg dsRNA per well of a 384-well plate
- Timing: 5 days
- Challenge: cells persistently infected with Wolbachia before knock-down; no added drug
- Measured: 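Automated imaging of bacterial rRNA staining divided by host cell count, reported as plate-normalised robust z-score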
- Scale: Wolbachia per cell robust z: higher = more Wolbachia per host cell than the plate typical
- Rule for the call: 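Hit when robust z is 1.5 or more, or -1.5 or less, in at least two of three replicates; excludes dsRNAs with several or no targets, genes not expressed in JW18 and well A1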
In all, the deposit lists about 24,000 reagents; this is an unselected part of those that have a named target and a result. Of all reagents, about 1,210 (5%) got an active call. 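Inactive calls also include excluded dsRNAs with several or no targets, genes unexpressed in JW18, and well A1, regardless of score.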 Unmarked entries are inactive. A plus sign joins genes that one reagent is predicted to hit.

Target gene | dsRNA | Wolbachia per cell robust z, rep 1 | Wolbachia per cell robust z, rep 2 | Wolbachia per cell robust z, rep 3
RSG7 | DRSC20274 | -3.96 | 0.259 | 0.625
RSG7 | DRSC22852 | 0.396 | -3.36 | 0.22
CG18666 | DRSC02694 | 0.258 | -0.374 | -0.598
plum | DRSC16054 | 0.523 | -1.73 | 0.466
stai | DRSC02920 | 0.491 | -0.913 | -0.247
stai | DRSC22235 | 0.621 | -0.0949 | -1.28
stai | DRSC28369 | -1.28 (active) | -1.65 | -3.7
CG3650 | DRSC04401 | 0.567 | 0.206 | 0.456
CG3650 | DRSC28976 | -0.426 | -0.805 | -0.893
GlyT | DRSC04512 | -0.323 | -0.504 | -0.549
GlyT | DRSC26130 | -0.427 | -2.32 | -1.85
fand | DRSC06967 | 2.47 (active) | 2.96 | 4.48
fand | DRSC27505 | 0.0122 | -1.8 | -0.474
fand | DRSC39027 | 1.12 | 0.902 | 1.46
CG1789 | DRSC18140 | 0.671 | 0.131 | -0.136
CG1789 | DRSC28967 | 0.165 | 0.22 | 0.0307
CG1737 | DRSC19771 | 0.864 | 0.938 | -0.313
CG1737 | DRSC25132 | 0.13 | 1.04 | 2.83
dare | DRSC07602 | 0.212 | -1.93 | 0.207
Pfdn4 | DRSC09761 | 0.00431 | -1.37 | -1.64
Pfdn4 | DRSC26736 | -2.1 | 0.718 | 0.111
mus101 | DRSC19388 | -2.23 | -0.813 | -1.27
CG11357 | DRSC08183 | 0.161 | 0.46 | 0.868
Ddx56 | DRSC20567 | -2 (active) | -1.69 | -4.37
Ddx56 | DRSC26165 | 0.652 | 0.855 | 0.336
CG1979 | DRSC12495 | 0.365 | -0.0937 | 0.142
CG1979 | DRSC24707 | 0.391 | -1.44 | 0.359
CG13175 + CG33964 | DRSC07184 | 1.35 | 1.05 | 0.905

Records above called active, once more:
Target gene | dsRNA | Wolbachia per cell robust z, rep 1 | Wolbachia per cell robust z, rep 2 | Wolbachia per cell robust z, rep 3
stai | DRSC28369 | -1.28 (active) | -1.65 | -3.7
fand | DRSC06967 | 2.47 (active) | 2.96 | 4.48
Ddx56 | DRSC20567 | -2 (active) | -1.69 | -4.37
